A mixed list of measured activities; the numbers were collected in NIAID ChemDB.

Shared fields: enzyme or target tests; agent: HIV-1; target: Reverse transcriptase; endpoint: fold resistance

Two numbers with a dash give a range or band.

compound,mutations,read by,strain or isolate,value
CCN1c2ncc(CCOc3ccc(S(=O)(=O)NCC(=O)O)c4ccccc34)cc2C(=O)N(C)c2cccnc21,RT-K103N Y181C,nucleotide incorporation / radiometric,-,1
CCN1c2ncc(CCOc3ccc(-c4ccc(C(=O)O)cc4)cc3)cc2C(=O)N(C)c2cccnc21,RT-K103N Y181C,nucleotide incorporation / radiometric,IIIB,>1
CCN1c2ncc(CCOc3ccc(CC(=O)O)c4c3CCCC4)cc2C(=O)N(C)c2ccc(F)nc21,RT-V106A,nucleotide incorporation / radiometric,-,>10
COC(=O)NCCCCNc1nc(Cc2ccccc2)c(C)c(=O)[nH]1,RT-K103N,-,-,>43.5
CCN1c2ncc(CCOc3ccc(CC(=O)O)c4ccccc34)cc2C(=O)Nc2c(C)cc(Cl)nc21,RT-K103N Y181C,nucleotide incorporation / radiometric,-,1–10
CC(C)=CCN1Cc2cccc3[nH]c(=S)n(c23)C[C@@H]1C,RT-Y181C,nucleotide incorporation,-,8.74
CCN1c2ncc(CCOc3ccc4cc(CC(=O)O)ccc4c3)cc2C(=O)N(C)c2cccnc21,RT-K103N Y181C,nucleotide incorporation / radiometric,-,>10
CCN1c2ncc(CCOc3ccc(-c4ccc(C(=O)O)cc4)cc3F)cc2C(=O)N(C)c2cccnc21,RT-K103N Y181C,nucleotide incorporation / radiometric,IIIB,>2
CCN1c2ncc(CCOc3ccc(/C=C/C(=O)O)c4ccccc34)cc2C(=O)Nc2c(C)ccnc21,RT-K103N Y181C,nucleotide incorporation / radiometric,-,1–10
CC(C)=CCOc1cc(NC(=S)c2ccoc2C)ccc1Cl,RT-Y188L,-,-,>31.25
CCN1c2ncc(CCOc3ccc(-c4ccc(CC(=O)O)cc4[N+](=O)[O-])cc3C)cc2C(=O)N(C)c2cccnc21,RT-K103N Y181C,nucleotide incorporation / radiometric,IIIB,>1
CCN1c2ncc(CCOc3ccc(C(=O)O)c4c3CCCC4)cc2C(=O)N(C)c2ccc(Cl)nc21,RT-K103N Y181C,nucleotide incorporation / radiometric,-,1–10
CCN1c2ncc(CCOc3cccc4c3ccc[n+]4[O-])cc2C(=O)Nc2c(C)cc(Cl)nc21,RT-V106A,nucleotide incorporation / radiometric,-,8.1
CCN1c2ncc(CCOc3ccc(C(=O)NN)cc3C)cc2C(=O)N(C)c2cccnc21,RT-K103N Y181C,nucleotide incorporation / radiometric,IIIB,1
CC(C)=CCOc1cc(NC(=S)c2ccsc2C)ccc1Cl,RT-Y188L,-,-,175
Cc1c(Cc2ccccc2)nc(SCCCCO)[nH]c1=O,RT-K103N,-,-,1.19
CCN1c2ncc(CCOc3ccc(C(=O)Nc4ccc(C(=O)O)cc4)cc3C)cc2C(=O)N(C)c2cccnc21,RT-K103N Y181C,nucleotide incorporation / radiometric,IIIB,1
NCCCCNc1nc(Cc2ccccc2)cc(=O)[nH]1,RT-V106A,-,-,>14.3
CCN1c2ncc(CCOc3ccc(S(=O)(=O)NCC(=O)O)cc3C)cc2C(=O)N(C)c2cccnc21,RT-K103N Y181C,nucleotide incorporation / radiometric,IIIB,1
C=C1c2cc(CCOc3ccc(NS(C)(=O)=O)c4ccccc34)cnc2N(CC)c2ncccc2N1C,RT-V106A,nucleotide incorporation / radiometric,-,>10
CCN1c2ncc(CCOc3ccc(-c4ccc(CC(=O)O)cc4)cc3)cc2C(=O)N(C)c2cccnc21,RT-K103N Y181C,nucleotide incorporation / radiometric,IIIB,>1
CCc1cc(CCc2nc3ccccc3o2)c(=O)[nH]c1C,RT-Y181F,nucleotide incorporation,-,0.6
CCN1c2ncc(CCOc3ccc(-c4ccncc4)cc3C)cc2C(=O)N(C)c2cccnc21,RT-K103N Y181C,nucleotide incorporation / radiometric,IIIB,1
CCN1c2ncc(CCOc3ccc(CC(C)C(=O)O)c4ccccc34)cc2C(=O)Nc2c(C)ccnc21,RT-K103N Y181C,nucleotide incorporation / radiometric,-,>10

The first 3 rows once more:

compound,mutations,read by,strain or isolate,value
CCN1c2ncc(CCOc3ccc(S(=O)(=O)NCC(=O)O)c4ccccc34)cc2C(=O)N(C)c2cccnc21,RT-K103N Y181C,nucleotide incorporation / radiometric,-,1
CCN1c2ncc(CCOc3ccc(-c4ccc(C(=O)O)cc4)cc3)cc2C(=O)N(C)c2cccnc21,RT-K103N Y181C,nucleotide incorporation / radiometric,IIIB,>1
CCN1c2ncc(CCOc3ccc(CC(=O)O)c4c3CCCC4)cc2C(=O)N(C)c2ccc(F)nc21,RT-V106A,nucleotide incorporation / radiometric,-,>10

An empty or dashed field is not shown. Neighbouring rows are from separate reports. Fold resistance has wild type as its base.